From paper PMC6598531, “Appraisal of anti-protozoan activity of nitroaromatic benzenesulfonamides inhibiting carbonic anhydrases from Trypanosoma cruzi and Leishmania donovani” (Journal of Enzyme Inhibition and Medicinal Chemistry, 2019)

Amino acid sequences for entries named in this document (tags omitted). Residues count along the entry.
UniProt Q4DKE0, 32-522 limits assumed: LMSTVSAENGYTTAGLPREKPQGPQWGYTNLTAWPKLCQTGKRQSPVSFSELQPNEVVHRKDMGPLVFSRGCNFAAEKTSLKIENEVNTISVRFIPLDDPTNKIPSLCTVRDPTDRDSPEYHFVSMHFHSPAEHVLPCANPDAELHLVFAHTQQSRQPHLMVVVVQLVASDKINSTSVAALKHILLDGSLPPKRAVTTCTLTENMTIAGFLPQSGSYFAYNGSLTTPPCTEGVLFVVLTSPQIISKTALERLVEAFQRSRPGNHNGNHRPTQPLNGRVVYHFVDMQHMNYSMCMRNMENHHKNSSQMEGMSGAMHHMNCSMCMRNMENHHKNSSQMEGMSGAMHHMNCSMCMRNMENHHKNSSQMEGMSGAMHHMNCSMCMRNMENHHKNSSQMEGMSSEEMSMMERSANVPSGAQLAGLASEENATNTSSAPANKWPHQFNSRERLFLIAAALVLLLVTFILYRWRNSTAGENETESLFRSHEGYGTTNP
UniProt A4HSV2, 1-306: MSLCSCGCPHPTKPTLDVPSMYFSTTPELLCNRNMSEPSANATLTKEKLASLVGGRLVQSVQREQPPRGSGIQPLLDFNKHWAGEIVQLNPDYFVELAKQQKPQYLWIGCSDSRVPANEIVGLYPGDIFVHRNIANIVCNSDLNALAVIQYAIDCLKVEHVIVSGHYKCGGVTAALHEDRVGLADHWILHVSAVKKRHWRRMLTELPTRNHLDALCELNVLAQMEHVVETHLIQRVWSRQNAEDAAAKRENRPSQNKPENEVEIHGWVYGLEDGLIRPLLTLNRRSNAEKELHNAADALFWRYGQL

Columns and labels:
[1] = tested on: T. cruzi Y; assay: growth inhibition of T. cruzi Y epimastigotes (resazurin); type: cell-based, Trypanosoma cruzi; settings: 48 h, 28 °C
[2] = target: TcCA (Trypanosoma cruzi, UniProt Q4DKE0); assay: stopped flow CO2 hydrase assay, TcCA inhibition; type: biochemical
[3] = target: LdcCA (Leishmania infantum, UniProt A4HSV2); assay: stopped flow CO2 hydrase assay, LdcCA inhibition; type: biochemical
[4] = tested on: RAW 264.7 macrophages; assay: cytotoxicity assay in macrophages (MTT); settings: 48 h
[5] = tested on: T. cruzi Dm 28c; assay: growth inhibition of T. cruzi Dm28c epimastigotes (resazurin); type: cell-based, Trypanosoma cruzi; settings: 48 h
[6] = tested on: L. infantum; assay: growth inhibition of L. infantum promastigotes (resazurin); type: cell-based, Leishmania infantum; settings: 48 h, 28 °C
[7] = tested on: L. amazonensis; assay: growth inhibition of L. amazonensis promastigotes (resazurin); type: cell-based, Leishmania amazonensis; settings: 48 h, 28 °C

Q: `NS(=O)(=O)c1cc([N+](=O)[O-])c(O)c([N+](=O)[O-])c1` was tested. Which “MIC T. cruzi Y” value [1] did it give?
A: >256 µM

Q: And the Ki ([2]; read-out: KI TcCA, stopped flow CO2 hydrase assay, mean from three assays)?
A: 160 nM

Q: What about the SI (KI1/KI2) CA I/TcCA ([2]; selectivity index, KI CA I / KI TcCA) of the same molecule?
A: 27.2

Q: What about the SI (KI1/KI2) CA II/TcCA ([2]; selectivity index, KI CA II / KI TcCA) of the same molecule?
A: 1.1

Q: What about the Ki ([3]; read-out: KI LdCA, stopped flow CO2 hydrase assay, mean from three assays) of the same molecule?
A: 340 nM

Q: And the SI (KI1/KI2) CA I/LdcCA ([3]; selectivity index, KI CA I / KI LdcCA)?
A: 12.8

Q: What about the SI (KI1/KI2) CA II/LdcCA ([3]; selectivity index, KI CA II / KI LdcCA) of the same molecule?
A: 0.5

Q: What about the CC50 [4] of the same molecule?
A: 100000 nM

Q: What about the “MIC T. cruzi Dm 28c” value [5] of the same molecule?
A: >256 µM

Q: What about the “MIC L. infantum” value [6] of the same molecule?
A: >400 µM

Q: And the “MIC L. amazonensis” value [7]?
A: >400 µM
